Reference: patent US20060051744

System: alpha-enolase (ENO1, 48 kDa band in CrFK lysate and feline tissues) (Felis catus)
Experiment: binding assay
Conditions: northwestern (1D and 2D); 50 mM NaCl, 10 mM Tris pH 7, 1 mM EDTA, with yeast tRNA and salmon sperm DNA as blockers; described as high affinity; protein in an extract; label: 32P-CTP internal

“CAUCGCGCUGUCUACUCUUGUACAGAAUGGUAAGCACGUGUAAUAGGAGGUACAAGCAACCCUAUUGCAUAUUAGGAAGUUUAGAUUUGAUUUGGCAAUGCUAGAUUUAGUAAUUUAGAGAA [FIPV 3'UTR riboprobe (positive strand, T7 transcript)]”: binds.

Where cells or extracts were used, other partners may take part.
